Laboratory results reported in the supplement of paper PMC9931576.
Human monoclonal antibodies against the spike receptor-binding domain (heavy:light variable regions). IC50 against pseudoviruses bearing the spike of naturally observed variants; lower = stronger; >10 µg/ml means not reached at the top dose. No active / inactive call. The stated detection limit is 0.0005 µg/ml; values near or below 0.001 µg/ml lie at the floor of the assay.

Assays:
Assay in all cases: pseudovirus neutralization IC50; higher = weaker neutralization
[1] = molecular target: SARS-CoV-2 Omicron BA.1 spike pseudovirus
Description: (§1)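 Single-round VSV luciferase pseudovirus mixed with antibody dilutions for 1 h and put on Huh-7 cells for about a day; IC50 from the dose curve.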

[2] = molecular target: SARS-CoV-2 Omicron BA.2 spike pseudovirus
Description: as §1

[3] = molecular target: SARS-CoV-2 Omicron BA.2.75 spike pseudovirus
Description: as §1

[4] = molecular target: SARS-CoV-2 Omicron BA.5 spike pseudovirus
Description: as §1

[5] = molecular target: SARS-CoV-2 Omicron BQ.1.1 spike pseudovirus
Description: as §1

[6] = molecular target: SARS-CoV-2 Omicron XBB spike pseudovirus
Description: as §1

[7] = molecular target: SARS-CoV-2 early D614G spike pseudovirus
Description: as §1

Measured: pseudovirus neutralization IC50

B1: BD55-6298 (protein)
chain 1: EVQLVESGGGLVQPGGSLRLSCAASGFTFSSYDMHWVRQSTGKGLEWVSVIGTTGDTYYPDSVKGRFTISRENAKNSLYLQMNSLRAGDTAVYYCVRVGYSYGLRYWYLDLWGRGTLVTVSS
chain 2: DIQMTQSPSSLSASVGDRVTITCRASQTVSRYLNWYQQKPGKPPQLLIYAASSLQSGVPSRFSGSGSGTDFTLTISSLQPEDYATYYCQQSYTSPMYTFGQGTKLEIK
> 10 µg/mL: all assays above

B2: BD55-6294 (protein)
chain 1: QVQLQQWGAGLLKPSETLSLTCAVYGGSFSGYFWAWIRQPPGKGLEWIGEINHSGSTNYNPSLKSRVTISADTSESQFSLKVSSVTAADTAMYYCARVGRGYSAYDYYYYYYMDVWGKGTTVTVSS
chain 2: DVQMTQSPSSLSASVGDRVTITCRASHNITRYLNWYQQKPGRAPNLLIYAASSLQSGVPSRFSGSGSGTDFTLTISSLRPEDFATYYCQLSYSPNTFGQGTKLEIK
> 10 µg/mL: all assays above

B3: BD55-6297 (protein)
chain 1: QITLKESGPTLVKPTQTLTLTCTFVGFSLSTSGVGVGWIRQPPGKALEWLALIYWNDDKYYSPSLKSRLTITKDTSENQVVLTMTNVDPVDTATYFCAHTMLFVYGDFDHWGQGTLVTVSS
chain 2: QSALTQPASVSGSPGQSITISCTGVSSDVDDYTYVSWYQQHPGKAPKLMIYDVSNRPSGVSDRFSGSKSGNTASLTISGLQAEDEAEYYCSSYTSTTTSRVFGGGTKLTVL
> 10 µg/mL: all assays above

B4: BD55-6303 (protein)
chain 1: EVQLVQSGAEVKKPGESLKISCKGSGFRFTNYWIGWVRQMPGKGLEWMGIIYPDDSDTRYSPSFQGQVTISADKSISVAYLQWSSLKASDTAIYYCARPICGGDCLPVYWGQGTLVTVSS
chain 2: DIQMTQSPSTLSASVGDRVTITCRASQSITGWLAWYQQKPGKAPKLLIQKASSLESGVPSRFSGSGSGTEFTLTISSLQPEDFATYYCQQYNSHPWTFGQGTKVEIK
> 10 µg/mL: all assays above

B5: BD55-6291 (protein)
chain 1: EVQLLESGGGLVQPGGSLRLSCAASGFIFNNYAMSWVRQAPGKGLEWVSDINDSGSRTDYADSVKGRFTISRDNSKNTLYLQMRSLRAEDTAIYYCAKDPSPTYYYDFTRFDNWGQGTLVTVSS
chain 2: DVVLTQSPLSLPVTLGQPASISCRSSQNLVYADGDTYLNWFQQRPGQSPRRLIYKVSNRDSGVPDRFSGSGSGTDFTLEISRVEAEDVGVYYCMQGSHWPPTFGGGTKVEIK
> 10 µg/mL: all assays above

B6: BD55-6295 (protein)
chain 1: EVQLVESGGGLVQPGGSLRLSCAASGFTFTSYWMSWVRQSPGKGLEWVANINHDGNDRYYVDSVKGRFTISRDNAKNSLFLQMNSLRAQDTAVYYCARAPELEHQLLPPEYFQHWGQGTLVTVSS
chain 2: SYELTQPPSVSVSPRQTARLTCSGKRLAMQYTHWYQQKPGQAPLLLIYKDRERPSGIPERFSGSSSGTTATLTISGVQAEDEADYYCQSADSSATSFVFGTGTKVTVL
> 10 µg/mL: all assays above
